{"source": "paper PMC4139342", "about": "“Pharmacokinetics-Pharmacodynamics Analysis of Bicyclic 4-Nitroimidazole Analogs in a Murine Model of Tuberculosis” (PLoS ONE, 2014)", "system": "Mtb", "test": "PK-PD indices from plasma and lung PK and MIC", "format": "in vivo, mice", "key": {"[1]": {"details": "25 mg/kg single dose PK, 24 h period"}, "[2]": {"details": "25 mg/kg, PK parameters derived from 50 mg/kg"}}}
{"compound": "O=[N+]([O-])c1cn2c(n1)OC[C@@H](NCc1ccc(OC(F)(F)F)c(Cl)c1)C2", "note": "[NI-135]", "values": [{"measurement": "Lung AUC/MIC, total concentration", "setting": "25 mg/kg single dose PK", "value": 620}, {"measurement": "Lung Cmax/MIC, total concentration", "setting": "25 mg/kg single dose PK", "value": 183}, {"measurement": "Plasma AUC/MIC, total concentration", "setting": "25 mg/kg single dose PK", "value": 160}, {"measurement": "Plasma fAUC/MIC, free concentration", "setting": "25 mg/kg single dose PK", "value": 13.3}, {"measurement": "Plasma fCmax/MIC, free concentration", "setting": "25 mg/kg single dose PK", "value": 3.3}, {"measurement": "Lung %T>MIC, total concentration", "setting": "[1]", "value": 95, "unit": "%"}, {"measurement": "Plasma %T>MIC, total concentration", "setting": "[1]", "value": 66, "unit": "%"}, {"measurement": "Plasma fT>MIC, free concentration", "setting": "[1]", "value": 16, "unit": "%"}]}
{"compound": "O=[N+]([O-])c1cn2c(n1)OC[C@@H](NCc1ccc(OC(F)(F)F)c(F)c1)C2", "note": "[NI-136]", "values": [{"measurement": "Lung AUC/MIC, total concentration", "setting": "25 mg/kg single dose PK", "value": 1327}, {"measurement": "Lung Cmax/MIC, total concentration", "setting": "25 mg/kg single dose PK", "value": 240}, {"measurement": "Plasma AUC/MIC, total concentration", "setting": "25 mg/kg single dose PK", "value": 357}, {"measurement": "Plasma fAUC/MIC, free concentration", "setting": "25 mg/kg single dose PK", "value": 60}, {"measurement": "Plasma fCmax/MIC, free concentration", "setting": "25 mg/kg single dose PK", "value": 10}, {"measurement": "Lung %T>MIC, total concentration", "setting": "[1]", "value": 89, "unit": "%"}, {"measurement": "Plasma %T>MIC, total concentration", "setting": "[1]", "value": 65, "unit": "%"}, {"measurement": "Plasma fT>MIC, free concentration", "setting": "[1]", "value": 49, "unit": "%"}]}
{"compound": "CC[C@H]1Oc2nc([N+](=O)[O-])cn2C[C@@H]1NCc1ccc(OC(F)(F)F)cc1", "note": "[NI-182]", "values": [{"measurement": "Lung AUC/MIC, total concentration", "setting": "25 mg/kg single dose PK", "value": 3660}, {"measurement": "Lung Cmax/MIC, total concentration", "setting": "25 mg/kg single dose PK", "value": 570}, {"measurement": "Plasma AUC/MIC, total concentration", "setting": "25 mg/kg single dose PK", "value": 1125}, {"measurement": "Plasma fAUC/MIC, free concentration", "setting": "25 mg/kg single dose PK", "value": 100}, {"measurement": "Plasma fCmax/MIC, free concentration", "setting": "25 mg/kg single dose PK", "value": 15}, {"measurement": "Lung %T>MIC, total concentration", "setting": "[1]", "value": 75, "unit": "%"}, {"measurement": "Plasma %T>MIC, total concentration", "setting": "[1]", "value": 66, "unit": "%"}, {"measurement": "Plasma fT>MIC, free concentration", "setting": "[1]", "value": 61, "unit": "%"}]}
{"compound": "CC[C@H]1Oc2nc([N+](=O)[O-])cn2C[C@@H]1NCc1ccc(-c2ccc(OC(F)(F)F)cc2)cc1", "note": "[NI-297]", "values": [{"measurement": "Lung AUC/MIC, total concentration", "setting": "25 mg/kg single dose PK", "value": 11670}, {"measurement": "Lung Cmax/MIC, total concentration", "setting": "25 mg/kg single dose PK", "value": 815}, {"measurement": "Plasma AUC/MIC, total concentration", "setting": "25 mg/kg single dose PK", "value": 4955}, {"measurement": "Plasma fAUC/MIC, free concentration", "setting": "25 mg/kg single dose PK", "value": 90}, {"measurement": "Plasma fCmax/MIC, free concentration", "setting": "25 mg/kg single dose PK", "value": 5.0}, {"measurement": "Lung %T>MIC, total concentration", "setting": "[1]", "value": 100, "unit": "%"}, {"measurement": "Plasma %T>MIC, total concentration", "setting": "[1]", "value": 100, "unit": "%"}, {"measurement": "Plasma fT>MIC, free concentration", "setting": "[1]", "value": 98, "unit": "%"}]}
{"compound": "O=C(CO[C@@H]1COc2nc([N+](=O)[O-])cn2C1)N1CCN(c2ccc(OC(F)(F)F)cc2)CC1", "note": "[NI-622]", "values": [{"measurement": "Lung %T>MIC, total concentration", "setting": "[2]", "value": 64, "unit": "%"}, {"measurement": "Lung AUC/MIC, total concentration", "setting": "[2]", "value": 198}, {"measurement": "Lung Cmax/MIC, total concentration", "setting": "[2]", "value": 28}, {"measurement": "Plasma %T>MIC, total concentration", "setting": "[2]", "value": 65, "unit": "%"}, {"measurement": "Plasma AUC/MIC, total concentration", "setting": "[2]", "value": 301}, {"measurement": "Plasma fAUC/MIC, free concentration", "setting": "[2]", "value": 8.9}, {"measurement": "Plasma fCmax/MIC, free concentration", "setting": "[2]", "value": 1.1}, {"measurement": "Plasma fT>MIC, free concentration", "setting": "[2]", "value": 17, "unit": "%"}]}
{"compound": "O=C(CO[C@@H]1COc2nc([N+](=O)[O-])cn2C1)N1CCN(c2ccc(C(F)(F)F)cn2)CC1", "note": "[NI-644]", "values": [{"measurement": "Lung %T>MIC, total concentration", "setting": "[2]", "value": 84, "unit": "%"}, {"measurement": "Lung AUC/MIC, total concentration", "setting": "[2]", "value": 211}, {"measurement": "Lung Cmax/MIC, total concentration", "setting": "[2]", "value": 42}, {"measurement": "Plasma %T>MIC, total concentration", "setting": "[2]", "value": 93, "unit": "%"}, {"measurement": "Plasma AUC/MIC, total concentration", "setting": "[2]", "value": 498}, {"measurement": "Plasma fAUC/MIC, free concentration", "setting": "[2]", "value": 50}, {"measurement": "Plasma fCmax/MIC, free concentration", "setting": "[2]", "value": 8.9}, {"measurement": "Plasma fT>MIC, free concentration", "setting": "[2]", "value": 53, "unit": "%"}]}
{"compound": "O=[N+]([O-])c1cn2c(n1)OC[C@@H](OCc1ccc(OC(F)(F)F)cc1)C2", "note": "[PA-824, (6S)-2-nitro-6-{[4-(trifluoromethoxy)benzyl]oxy}-6,7-dihydro-5H-imidazo[2,1-b][1, 3]oxazine, reference compound]", "values": [{"measurement": "Lung AUC/MIC, total concentration", "setting": "25 mg/kg single dose PK", "value": 466}, {"measurement": "Lung Cmax/MIC, total concentration", "setting": "25 mg/kg single dose PK", "value": 59}, {"measurement": "Plasma AUC/MIC, total concentration", "setting": "25 mg/kg single dose PK", "value": 170}, {"measurement": "Plasma fAUC/MIC, free concentration", "setting": "25 mg/kg single dose PK", "value": 17}, {"measurement": "Plasma fCmax/MIC, free concentration", "setting": "25 mg/kg single dose PK", "value": 2.0}, {"measurement": "Lung %T>MIC, total concentration", "setting": "[1]", "value": 96, "unit": "%"}, {"measurement": "Plasma %T>MIC, total concentration", "setting": "[1]", "value": 66, "unit": "%"}, {"measurement": "Plasma fT>MIC, free concentration", "setting": "[1]", "value": 37, "unit": "%"}]}
